A mixed list of measured activities; the numbers were collected in NIAID ChemDB.

Common to all: growth or infection tests; organism: Influenza A virus; endpoint: EC50

An empty or dashed field is not shown.

smiles | strain or isolate | method | cell line | value
ClCN1CC[N+]2(CC1)CC[N+]1(CCN(CCl)CC1)CC2 |  | cytopathic effect | MDCK | >70 µg/mL
C[C@@H]1CCC[C@@H]2C[C@@H](NC(=O)c3cc(Cl)ccc3O)CCN21 | H1N1 A/WSN/33 | plaque count | MDBK | 0.8 µg/mL
CC(C)CCCC(C)C1CCC2C3CC=C4CC(OC(=O)Nc5ccc(S(=O)(=O)O)c6ccccc56)CCC4(C)C3CCC12C | Influenza A/Ishikawa/7/82 (H3N2) | cytopathic effect | MDCK | 15 µM
Cc1nc(Cl)c([N+](=O)[O-])c(N2CC[N+](C)(C)CC2)n1 |  | cytopathic effect | MDCK | >70 µg/mL
CC(C)CCCC(C)C1CCC2C3CC=C4CC(OC(=O)Cl)CCC4(C)C3CCC12C | Influenza A/Ishikawa/7/82 (H3N2) | cytopathic effect | MDCK | >200 µM
O=c1[nH]cnc(N2CC[N+]3(CC2)CC[N+]2(CCN(c4nc[nH]c(=O)c4[N+](=O)[O-])CC2)CC3)c1[N+](=O)[O-] |  | cytopathic effect | MDCK | >70 µg/mL
CC(=O)N[C@H]1[C@H]([C@H](O)[C@H](O)CO)OC(C(=O)O)=C[C@@H]1N | Influenza A/Mississippi/1/85 (H3N2) | plaque count | MDCK | 1.2 µM
C[C@@H]1CCC[C@@H]2C[C@@H](NC(=O)c3cc(O)ccc3O)CCN21 | H1N1 A/WSN/33 | plaque count | MDBK | >20 µg/mL
Nc1ccc(S(=O)(=O)O)c2cccc(S(=O)(=O)O)c12 | Influenza A/Ishikawa/7/82 (H3N2) | cytopathic effect | MDCK | >200 µM
C[C@@H]1CCC[C@@H]2C[C@@H](NC(=O)c3cc(F)ccc3O)CCN21 | H1N1 A/WSN/33 | plaque count | MDBK | 0.4–0.8 µg/mL
N=C(N)c1ncn([C@@H]2O[C@H](CO)[C@@H](O)[C@H]2O)n1 | Influenza A/Sydney/05/97 (H3N2) | neutral red | MDCK | 23 µg/mL
CCOC(=O)C1=C[C@@H](OC2CCCCC2)[C@H](NC(C)=O)[C@@H](N)C1 | H3N2 A/HK/7/87 | cytopathic effect | MDCK cells | 60 µM
COc1ccc(/C=C2\N=C(CC(C)C)C(=O)N(O)C2=O)cc1 |  |  |  | >10 µM
Nc1nc(-c2ccc(Br)cc2Br)c(SCC(=O)Nc2ccccc2N)s1 | H3N2 A/PR/8/34 | cytopathic effect | MDCK cells | 0.37 µM
Nc1ccc(S(=O)(=O)O)c2cc(S(=O)(=O)O)cc(O)c12 | Influenza A/Ishikawa/7/82 (H3N2) | cytopathic effect | MDCK | >200 µM
COc1ccc([C@@H]2CC(=O)c3c(O)cc(O[C@@H]4O[C@H](CO[C@@H]5O[C@@H](C)[C@H](O)[C@@H](O)[C@H]5O)[C@@H](O)[C@H](O)[C@H]4O[C@@H]4O[C@@H](C)[C@H](O)[C@@H](O)[C@H]4O)cc3O2)cc1 | H1N1 A/Taiwan/1/86 | ELISA |  | 918 µg/mL
C=C1[C@H](CO)[C@@H](O)C[C@@H]1n1cnc2c(=O)[nH]c(N)nc21 | H1N1 A/WSN/33 (H1N1) |  | MDBK | >80 µM
CCCC(=O)O[C@H]1CN2CC[C@H](O)[C@@H]2[C@@H](O)[C@@H]1O | A/HONG KONG/11/88 | plaque count | MDCK | <6 µM
Nc1ncnc2c1ncn2[C@@H]1C[C@@H](O)[C@H](CO)O1 |  |  | MDCK | >100 µM
CC(N)C12CC3CC(CC(C3)C1)C2 | H1N1 A/TEXAS/36/91 | neutral red / visual reading | MDCK | 0.15 µM
COc1cc(N)c(Cl)cc1C(=O)N[C@H]1CCN2[C@H](CCC[C@H]2C)C1 | H1N1 A/WSN/33 | plaque count | MDBK | >20 µg/mL
Cc1ccccc1NC(=O)CSc1sc(N)nc1-c1ccc(Br)cc1Br | H1N1 A/PR/8/34 | cytopathic effect | MDCK cells | 0.39 µM
C[C@@H]1CCC[C@@H]2C[C@@H](NC(=O)c3ccccc3O)CCN21 | H1N1 A/WSN/33 | plaque count | MDBK | 1.6–3.1 µg/mL
CC(N)C12CC3CC(CC(C3)C1)C2 | H1N1 A/FM/1/47 | plaque count | MDCK | 0.62 µM
C=Cc1ccc(O)c(C(=O)N[C@H]2CCN3[C@H](CCC[C@H]3C)C2)c1 | H1N1 A/WSN/33 | plaque count | MDBK | 2 µg/mL
NC12CC3CC(CC(C3)C1)C2 | H1N1 SUITA/1/89 | plaque count | MDCK | >50 µg/mL
CC(N)C12CC3CC(CC(C3)C1)C2 | H1N1 A/PR/8/34 | cytopathic effect | MDCK cells | 32.5 µM
CC(=O)N[C@H]1[C@H]([C@H](O)[C@H](O)CO)OC(C(=O)O)=C[C@@H]1N=C(N)N | H1N1 A/Brazil/11/78 |  | MDCK | 0.014 µM
NC(=O)c1c[se]c([C@@H]2O[C@H](CO)[C@@H](O)[C@H]2O)n1 | H1N1 A/WSN |  | MDCK | 25 µM
NC(=O)c1ncn([C@@H]2O[C@H](CO)[C@@H](O)[C@H]2O)c1O |  | plaque count | MDCK | 12 µg/mL
Cc1cn([C@@H]2C[C@@H](O)[C@H](CO)O2)c(=O)[nH]c1=O |  |  | MDCK | >100 µM
OC(CCl)CN1CC[N+]2(CC1)CC[N+]1(CCN(CC(O)CCl)CC1)CC2 |  | cytopathic effect | MDCK | >70 µg/mL
COc1cc(NC(=O)Nc2cccc(CNC(=O)O[C@H]3CCOC3)c2)ccc1-c1cnco1 |  | MTT | MDCK | >31 µM
C[N+]1(C)CCN(c2cccc(N3CC[N+](C)(C)CC3)c2[N+](=O)[O-])CC1 |  | cytopathic effect | MDCK | >70 µg/mL
C[C@@H](O)C1=C[C@@H](n2cnc3c(N)ncnc32)[C@H](O)[C@@H]1O | Influenza A/Ishikawa/7/82 (H3N2) | plaque count | MDCK | >100 µg/mL

a–b is a range or a potency band. Neighbouring rows are from separate reports. ECn: concentration that inhibits the pathogen or its effect by n%.